In patent US20220152080A1 (priority 2019, published 2022):

System: WSN/H1N1
Assay: multi passaging resistance experiment, A549 cells infected with WSN/H1N1, plaque titration

SMILES: O=C(NOCC1CC1)c1ccc(F)c(F)c1Nc1ccc(I)cc1Cl [CI-1040]
- average titer compared to the DMSO control, round 5 to round 12 (10 μM inhibitor, DMSO control = 100%): 8.45%±3.41%
- development of resistance on passaging with increasing concentrations (multi passaging, A549, WSN/H1N1 MOI 0.01): high barrier towards development of resistance
- reduction of viral titers compared to the DMSO control, first round (round 1, 1 μM inhibitor, 24 h p.i., MOI 0.01): 64.75%±0.32%
